Measured values from several laboratories, pooled; numbers as filed in NIAID ChemDB.

All rows: tests in culture; species: Candida albicans; measure: Geometric mean MIC

Neighbouring rows are from separate reports.

structure	strain	value
COc1ccc(C(Cc2c(Cl)cccc2Cl)n2ccnc2)cc1	34 strains	28.48 µg/mL
CCC(C)n1ncn(-c2ccc(N3CCN(c4ccc(OC[C@H]5CO[C@](Cn6cncn6)(c6ccc(Cl)cc6Cl)O5)cc4)CC3)cc2)c1=O	17 isolates fluconazole-susceptible	0.05 µg/mL
O=C(NCc1ccc(Cl)cc1)c1ccccc1O	ATCC 44859	352.3 µM
COc1ccc(C(Cc2ccccc2-n2cccc2)n2ccnc2)cc1	34 strains	26.96 µg/mL
CCCCCOc1ccc(-c2ccc(-c3ccc(C(=O)N[C@H]4C[C@@H](O)[C@@H](O)NC(=O)[C@@H]5[C@@H](O)[C@@H](C)CN5C(=O)[C@H]([C@H](C)O)NC(=O)[C@H]([C@H](O)[C@@H](O)c5ccc(O)cc5)NC(=O)[C@@H]5C[C@@H](O)CN5C(=O)[C@H]([C@H](C)O)NC4=O)cc3)cc2)cc1	42 isolates	0.0029 µg/mL
CC[C@@H]([C@H](C)O)n1ncn(-c2ccc(N3CCN(c4ccc(OC[C@@H]5CO[C@@](Cn6cncn6)(c6ccc(F)cc6F)C5)cc4)CC3)cc2)c1=O	10 strains (fluconazole-resistant)	0.2 µg/mL
Clc1cc(Cl)c2c(c1)CCc1ccccc1C2n1ccnc1	12 isolates	0.03 µg/mL
C[C@H]1[C@H](O)[C@@H](C)/C=C/C=C/C=C/C=C/C=C/C=C/C=C/[C@H](O[C@@H]2O[C@H](C)[C@@H](O)[C@H](N)[C@@H]2O)C[C@@H]2O[C@](O)(C[C@@H](O)C[C@@H](O)CC[C@H](O)[C@@H](O)C[C@@H](O)CC(=O)O[C@H]1C)C[C@H](O)[C@H]2C(=O)O	5 isolates fluconazole-susceptible	0.5 µg/mL
C[C@@H]([C@H](N)C(=O)N[C@H](C(=O)O)[C@H]1O[C@@H](n2ccc(=O)[nH]c2=O)[C@H](O)[C@@H]1O)[C@H](O)c1ccc(O)cn1	36 isolates	4.7 µg/mL
COc1ccc(C(Cc2cccc([N+](=O)[O-])c2)n2ccnc2)cc1	34 strains	>256 µg/mL
NC(=NC1CCCC1)c1ccc(-c2ccc(-c3ccc(C(N)=NC4CCCC4)cc3)o2)cc1	21 strains	14.18 µg/mL
COc1ccc(C(Cc2ccccc2Cl)n2ccnc2)cc1	34 strains	214 µg/mL
C[C@@H](c1ncncc1F)[C@](O)(Cn1cncn1)c1ccc(F)cc1F	8 strains	0.112 µg/mL
COc1ccc(C(Cc2ccccc2F)n2ccnc2)cc1	34 strains	143.8 µg/mL
Nc1[nH]c(=O)ncc1F	5 isolates fluconazole-susceptible	0.223 µg/mL

A second listing of 2 rows from above:

structure	strain	value
CCC(C)n1ncn(-c2ccc(N3CCN(c4ccc(OC[C@H]5CO[C@](Cn6cncn6)(c6ccc(Cl)cc6Cl)O5)cc4)CC3)cc2)c1=O	17 isolates fluconazole-susceptible	0.05 µg/mL
C[C@@H](c1ncncc1F)[C@](O)(Cn1cncn1)c1ccc(F)cc1F	8 strains	0.112 µg/mL